In patent US8785452B2, “Anti-infective compounds” (priority 2008, dated 2014):

Experiments:
[1] = system: M. tuberculosis H37Rv-GFP; details: confirmation, in vitro growth
[2] = system: M. tuberculosis H37Rv-GFP

## C/C(=N/NC(=O)c1cc([N+](=O)[O-])cc([N+](=O)[O-])c1)c1ccc([N+](=O)[O-])o1
[1]; 0.2 uM
  QUM Confirm % Inhibition 0.2 uM: 41.1%
[1]; 2 uM
  QUM Confirm % Inhibition 2 uM: 41.9%
[1]; 20 uM
  QUM Confirm % Inhibition 20 uM: 67.6%
[2]; confirmation, 0.2 uM, intracellular
  QIM Confirm % Inhibition 0.2 uM: 42.7%
[2]; confirmation, 2 uM, intracellular
  QIM Confirm % Inhibition 2 uM: 17.6%
[2]; confirmation, 20 uM
  QIM Confirm % Inhibition 20 uM: 4.1%
[2]; primary screen, 20 μM
  Primary QIM % Inhibition: −57.3%
